Experimental findings from article PMC11130183, “Human neutralizing antibodies target a conserved lateral patch on H7N9 hemagglutinin head” (Nature Communications, 2024) are described below.

Assay [1] deals with soluble recombinant HA ΔTM antigen based on A/Shanghai/2/2013 H7N9 (influenza A virus A/Shanghai/2/2013 …). As to the kind of experiment: ELISA. The conditions noted are these: both partners purified. In general terms: In an ELISA, binding on a coated surface is turned into a signal by an enzyme label.
Assay [2] addresses T1, H7N9 HA1 based on A/Shanghai/2/2013 (influenza A virus A/Shanghai/2/2013 …).
T1 construct: source: bought: Immune Technologies (Cat. No. IT-003-0074p)
In words: ELISA. The conditions noted are these: both partners purified.

B1: H7.167 (antibody, V domains shown)
VH: QVQLVQSGGGLVQPGGSLRLSCAASGFNFSSYEMNWVRQAPGKGLEWVSYISSSGSTIYYADSVKGRFTISRDNAKNSLYLQMNSLRAEDTAVYYCRLLWFGELFFDYWGQGTLVTVSS
VL: DIVMTQSPDSLAVSLGERATINCKSSQSVLYSSNNKNYLAWYQQKPGQPPKLLIYWASTRESGVPDRFSGSGSGTDFTLTISSLQAEDVAVYYCQQYYSTPGLTFGGGTKVEIK
On to B1, for which the binding result in assay [1] and in assay [2] was “binds” throughout.

B2: L4A-14 (antibody, V domains shown)
VH: EVQLLESGGGVVQPGRSLRLSCAASGFTFSSYAIHWVRQAPGKGLEWVALISYDGSNKYYADSVKGRFTISRDNSKNTLYLQMNSLRAEDTAVYYCNGHGSGGEVGSNWFDPWGQGTLVTVSS
VL: NFMLTQPHSVSESPGKTVTISCTRSSGSIASNYVQWYQQRPGSSPTTVIYEYNQRPSGVPDRFSGSIDSSSNSASLTISGLKTEDEADYYCQSYDSANRVFGGGTKLTVL
With B2, the binding result in assay [1] and in assay [2] was “binds” throughout.
